# Measured values reported in article PMC7156659 (2020).
# Where “and” joins values, the source holds several entries; their conditions need not be identical. Identical values can stand only once.
# B1: MavC (residues 7–384) (enzyme)
# chain: EKTGLHVHEKIKHMVKNYGTMITGIPAEILGQNEAEISVGYVKKMGNMKENIAEVVRKSEMTQPTNSCGKASNEVCDLLLGTEGASEFEKSSYQVLSGDGSNLKGSLPNKNLLVRVEMDRFNAPQKYQKIKREEFNPETAEKNKIYLLEDQLVYLDIFGKVIDLGQTSDTCHRLFNAITTPFYQNYILYDEYIDPEESAEEAAMFEMGEIVKAKMKNIDCWTATHSFTIFVPESDSEDTRTLYPYQAYWTSHTLQQWFSGDKDEKLSRLGIDGYIEKLALLGTTTDSKIRSSIYGELFSPPGKEHVFCTGMNEKFSPLRVKFKVTEVNPEIALQNLEEVQEFIDTNYPGENAKDQCELYKIKAQEAMTKQLEMRLLIE
# Biological target: Lpg2149 (L. pneumophila, UniProt Q5ZTL2 1-119)
# Test: ITC
binder,measurement,value
B1,Kd,5.52 nM and 11 nM
